Results published in publication PMC8315922, “In Vitro Identification and In Vivo Confirmation of Inhibitors for Sweet Potato Chlorotic Stunt Virus RNA Silencing Suppressor, a Viral RNase III” (Journal of Virology, 2021).
Where two headings read alike, the source gives them in different places.

Sequences of proteins named here, by UniProt entry; tags and fusion partners are left off. Residues count along the entry.
UniProt Q8JJW8, 1-228: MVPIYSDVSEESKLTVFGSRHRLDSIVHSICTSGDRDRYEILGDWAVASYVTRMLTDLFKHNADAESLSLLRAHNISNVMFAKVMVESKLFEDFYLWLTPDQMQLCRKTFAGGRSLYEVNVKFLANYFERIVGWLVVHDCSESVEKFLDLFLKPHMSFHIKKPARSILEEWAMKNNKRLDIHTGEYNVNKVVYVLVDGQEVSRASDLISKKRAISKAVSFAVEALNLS

Columns and labels:
[1] = molecular target: T1, CSR3 (RNase III of SPCSV) (Sweet potato chlorotic stunt virus, UniProt Q8JJW8); assay: Kinetic-based FRET dose-response assay (IC50, DSS); assay type: biochemical; settings: for DSS FIMM 2: repeat FIMM 2; for IC50: 1.25 nM to 50 μM, unit inferred, numbers match nM
[2] = test system: sweetpotato plants; assay: Toxicity and plant growth (height) of coinfected sweetpotato plants grown in culture medium; settings: 50 μM in culture medium
[3] = test system: SPCSV; assay: Virus accumulation (RT-qPCR of coat protein RNA) in coinfected sweetpotato plants grown in culture medium: SPCSV; assay type: in vivo, Sweet potato chlorotic stunt virus; settings: 50 μM in culture medium, 28 days, relative to DMSO control
[4] = molecular target: CSR3 (Sweet potato chlorotic stunt virus, UniProt Q8JJW8); assay: Binding affinity assay using MST; settings: Table S4
[5] = test system: SPFMV; assay: Virus accumulation (RT-qPCR of coat protein RNA) in coinfected sweetpotato plants grown in culture medium: SPFMV; assay type: in vivo, Sweet potato feathery mottle virus; settings: 50 μM in culture medium, 28 days, relative to DMSO control
[6] = molecular target: T1, CSR3 (RNase III of SPCSV); assay: Kinetic-based HTS (FRET, labeled 22-bp siRNA cleavage), one concentration; assay type: biochemical; settings: compound 10 μM, 375 nM siRNA, 37°C
Source text: Based on the catalytic activity of CSR3 on 22-bp siRNA, our kinetic-based HTS assay was designed using distance-dependent FRET technology. Specifically, one strand of siRNA, as a substrate, was labeled with a fluorescent dye (6-carboxyfluorescein [FAM]) at the 5′ end and a quencher (black hole quencher 1 [BHQ1]) at the 3′ end. The initial reaction rate of CSR3 was quantified using the slope of raw fluorescence under an excitation/emission spectrum at 485/520 nm (Fig. 3A). According to our previous study ([24]) detailing CSR3 kinetic-based HTS development and optimization, this assay was conducted using 100 nM CSR3 enzyme and 375 nM siRNA substrate over 12 plate read cycles (∼17 min total) at 37°C. […] To evaluate the quality of the HTS assay, the Z-factor (Z′) parameter was calculated using the reaction rates of the positive and negative controls ([30]). […]
The HTS assay was designed based on FRET using a 22-bp siRNA (forward sequence, […]; reverse sequence, […]) with a 2-nucleotide (nt) 3′ overhang labeled with the fluorescent dye 6-carboxyfluorescein (FAM) and a black hole quencher (BHQ1) on the sense strand (Metabion, Munich, Germany). […] The plates were read with a PHERAstar FS reader (BMG Labtech, Ortenberg, Germany).
For HTS, the activity of CSR3 was calculated by measuring the change in fluorescence as a function of the reaction time using MARS Data Analysis software (BMG Labtech). […]

[7] = read-out: IC50 FIMM 2, repeat FIMM 2 (FIMM library compounds)

**Q.** How did the “DSS FIMM 2” value ([1]; drug sensitivity score) turn out when c1cnc2[nH]c(Nc3ccc(Nc4nc5cccnc5[nH]4)cc3)nc2c1 was run?
**A.** 13.2

**Q.** What about the IC50 [1, 7] of the same molecule?
**A.** 2420 nM

**Q.** For COc1cc(C=C2C(=O)NC(=S)NC2=O)ccc1OCc1ccccc1[N+](=O)[O-] [FIMM101864], which Toxicity [2] is on record?
**A.** no

**Q.** With CCn1c(C)nc2cc(S(N)(=O)=O)ccc21 as the molecule, how does the “SPCSV_FC (fold change of viral accumulation)” value [3] read?
**A.** 1.751

**Q.** And the “DSS Comm 1” value ([1]; drug sensitivity score, repeat Comm 1)?
**A.** 6

**Q.** What about the “DSS FIMM 2” value ([1]; drug sensitivity score) of the same molecule?
**A.** 15.2

**Q.** What about the IC50 ([1]; read-out: IC50 Comm 1, repeat Comm 1 (commercial compounds)) of the same molecule?
**A.** 4610 nM

**Q.** What about the IC50 [1, 7] of the same molecule?
**A.** 1740 nM

**Q.** And the Kd ([4]; MST binding affinity to CSR3)?
**A.** 1.62 µM

**Q.** And the “Binding (Yes/No)” value ([4]; MST binding call)?
**A.** Yes

**Q.** What about the “Response Amplitude” value ([4]; MST response amplitude) of the same molecule?
**A.** 23

**Q.** And the “SPFMV_FC (fold change of viral accumulation)” value [5]?
**A.** 1.416

**Q.** And the “PI values (percentage of inhibition)” value [6]?
**A.** 99.1094%
